Among the data in patent US20110287936 are activity on this sequence values, retold here.

Protein sequences, listed by entry. Tags and fused reporters are not part of them. Chains listed by the source or under a name are the forms on record and can include a tag or linker. Residues count along the entry.
UniProt P04483, 2-207, tags left off: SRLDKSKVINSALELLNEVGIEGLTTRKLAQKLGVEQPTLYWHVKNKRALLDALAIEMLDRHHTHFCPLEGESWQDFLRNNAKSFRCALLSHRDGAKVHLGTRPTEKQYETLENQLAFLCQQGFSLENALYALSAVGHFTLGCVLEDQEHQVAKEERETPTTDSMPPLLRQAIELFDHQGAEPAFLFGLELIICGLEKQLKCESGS

Construct, isoform or probe ends are uncertain for at least one entry.

This data set deals with Wt TetR(B) in planta (Escherichia coli) (UniProt P04483). As to the kind of experiment: activity in cells. The following applies: N. benthamiana leaf, Renilla luciferase; fully induced at 2.0 ppm anhydrotetracycline; protein in cells.

Regarding “GAAAATCTTCGTCAACATGGTGGAGCACGACACGCTTGTCTACTCCAAAAATATCAAAGATACAGTCTCAGAAGACCAAAGGGCAATTGAGACTTTTCAACAAAGGGTAATATCCGGAAACCTCCTCGGATTCCATTGCCCAGCTATCTGTCACTTTATTGTGAAGATAGTGGAAAAGGAAGGTGGCTCCTACAAATGCCATCATTGCGATAAAGGAAAGGCCATCGTTGAAGATGCCTCTGCCGACAGTGGTCCCAAAGATGGACCCCCACCCACGAGGAGCATCGTGGAAAAAGAAGACGTTCCAACCACGTCTTCAAAGCAAGTGGATTGATGTGATATCTCCACTGACGTAAGGGATGACGCACAATCCCACTAGACTCTATCAGTGATAGAGTGTATATAAGACTCTATCAGTGATAGAGTGAACTCTATCAGTGATAGAGTTGTACTTATTTTTACAACAATTACCAACAACAACAAACAACAAACAACATTACAATTACTATTTACAATTACAGTCGACGGATCAAGTGCAAAGGTCCGCCTTGTTTCTCCTCTGTCTCTTGATCTGACTAATCTTGGTTTATGATTCGTTGAGTAATTTTGGGGAAAGCTTCGTCCACAGTTTTTTTTTCGATGAACAGTGCCGCAGTGGCGCTGATCTTGTATGCTATCCTGCAATCGTGGTGAACTTATTTCTTTTATATCCTTCACTCCCATGAAAAGGCTAGTAATCTTTCTCGATGTAACATCGTCCAGCACTGCTATTACCGTGTGGTCCATCCGACAGTCTGGCTGAACACATCATACGATATTGAGCAAAGATCGATCTATCTTCCCTGTTCTTTAATGAAAGACGTCATTTTCATCAGTATGATCTAAGAATGTTGCAACTTGCAAGGAGGCGTTTCTTTCTTTGAATTTAACTAACTCGTTGAGTGGCCCTGTTTCTCGGACGTAAGGCCTTTGCTGCTCCACACATGTCCATTCGAATTTTACCGTGTTTAGCAAGGGCGAAAAGTTTGCATCTTGATGATTTAGCTTGACTATGCGATTGCTTTCCTGGACCCGTGCAGCTGCGGACGGATCC (double strand) [35SCaMV::tetOp promoter (three tet operators)]”, the activity on this sequence turned out to be 90 % repression.
